Values quoted from earlier work as cited in PMC4670578.
Where two headings read alike, the source gives them in different places.

What was measured:
His37 [1] = molecular target: T1, His37 (UniProt position 37, IIGILHLILWI); test: NMR; conditions: M2TM tetramer in lipid environment
His37 [2] = molecular target: T1, His37; conditions: M2TM tetramer in raft-like (viral-mimetic) membrane

**Q.** With “M2 transmembrane domain peptide (M2TM) (Influenza A virus (strain not stated))” as the substance, how does the pKa (His37 [1]) read?
**A.** Its pKa is 8.2.

**Q.** And the pKa (His37 [2])?
**A.** The pKa was 7.6.
